System: Legionella pneumophila
Assay: Chlorine disinfection of water containing viable Legionella, measured with Legionella dip-slides
Settings: for % Disinfected: 0.17 mg/l free residual oxidant as Cl2, [(control − treatment)/control] × 100 from MFU/ml; for Legionella pneumophila (Ave MFU/ml) / Legionella pneumophila Ave (MFU/dip-slide): free residual oxidant 0.17 mg/l (ppm) as Cl2; for Legionella pneumophila (Ave MFU/ml): dip-slide absorbs 0.3 ml; for Legionella pneumophila Ave (MFU/dip-slide): total residual oxidant 0.25 mg/l

With Chlorine the “% Disinfected” value (contact time 1 min) was 33%, the “Legionella pneumophila (Ave MFU/ml)” value (contact time 1 min) was 8 MFU/ml and the “Legionella pneumophila Ave (MFU/dip-slide)” value (contact time 1 min) was 3 MFU/dip-slide. For the same substance, the “% Disinfected” value (contact time 5 min) was 100%, the “Legionella pneumophila (Ave MFU/ml)” value (contact time 5 min) was 0 MFU/ml and the “Legionella pneumophila Ave (MFU/dip-slide)” value (contact time 5 min) was 0 MFU/dip-slide. For the same substance, the “% Disinfected” value (contact time 10 min) was 100%, the “Legionella pneumophila (Ave MFU/ml)” value (contact time 10 min) was 0 MFU/ml and the “Legionella pneumophila Ave (MFU/dip-slide)” value (contact time 10 min) was 0 MFU/dip-slide.

— patent US7901932B2, “Methods and compositions for rapidly detecting and quantifying viable Legionella” (dated 2011)
